Measured values from several laboratories, pooled; numbers as filed in NIAID ChemDB.

Common to all: growth or infection tests; species: HIV-1; cell line: MT-4; measure: EC50

ECn: concentration that inhibits the pathogen or its effect by n%.

compound | strain or isolate | changes | read by | conditions | value
CCN1C[C@H](C)N2C(=C(O)C3C(=O)N4Cc5ccc(F)cc5OCCCCCS(=O)(=O)N(C)C(=N4)C32)C1=O | LAII(IIIB) | - | - | - | 1.67 µM
CC(C)C1=C2[C@H]3CC[C@@H]4[C@@]5(C)CC[C@H](OC(=O)C6C[C@@H](C(=O)O)C6(C)C)C(C)(C)[C@@H]5CC[C@@]4(C)[C@]3(C)CC[C@@]2(NC(=O)C(C)(C)NC(=O)c2cnccn2)CC1=O | NL4-3 | V7A | p24 | - | <0.01 µM
CC(C)CN(C[C@@H](O)[C@H](Cc1ccccc1)NC(=O)[C@H](C(C)C)N1CC(=O)N(Cc2ccncc2)C1=O)S(=O)(=O)c1ccc(/C=N/O)cc1 | A17 (LPV-resistant) | PR-L10F V32I M46I I47V Q68E I84V | cytopathic effect / MTT | - | 0.015 µM
CCN1CCCCCOc2cc(F)c(Cl)cc2CN2N=C(C1=O)C1C(C2=O)C(O)=C2C(=O)N(CC)C[C@H](C)N21 | LAII(IIIB) | - | - | - | 23.08 µM
CCC(C)[C@@H](C(=O)N[C@@H](Cc1ccccc1)[C@H](O)CN(CC1CCCC1)S(=O)(=O)c1ccc(/C=N/O)cc1)N1CCN(Cc2cccnc2C)C1=O | - | - | cytopathic effect / MTT | - | 0.002 µM
NC(=O)c1[nH]c2ccc(Cl)cc2c1S(=O)(=O)c1ccccc1 | - | RT-Y181C | cytopathic effect / MTT | - | 0.08 µM
C=C(c1ccc(F)cc1)c1c(C)c(=O)[nH]c(=O)n1COCc1ccccc1 | IIIB | - | MTT | - | 44.15 µM
N#Cc1cc(Cl)cc(C(=O)c2cc(Cl)ccc2OCc2[nH]nc3ncccc23)c1 | HXB2 | - | cytopathic effect / MTT / absorbance | 10% FBS | 0.0037 µM
CCN1C[C@@H](C)N2C(=C(O)C3C(=O)N(Cc4ccc(F)c(Cl)c4)N=C(N4CCN(C)S4(=O)=O)C32)C1=O | LAII(IIIB) | - | - | - | 2.04 µM
CCOCn1c(Sc2c(Cl)cccc2Cl)cc(=O)[nH]c1=O | NL4-3 | - | MTT | - | >1.7 µg/mL
CCN1C[C@H](C)N2C(=C(O)C3C(=O)N4Cc5ccc(F)cc5C(=O)NCCCS(=O)(=O)N(C)C(=N4)C32)C1=O | LAII(IIIB) | - | - | - | 0.7 µM
Nc1nc(N)c2ncn([C@H]3CC[C@@H](CO)O3)c2n1 | IIIB Laboratory strain | - | cytopathic effect / trypan blue | - | 3.6 µM
COCP(=O)(O)OC[C@H]1O[C@@H](n2cc(C)c(=O)[nH]c2=O)C[C@@H]1N=[N+]=[N-] | GKV-4046 | - | MTT / p24 | - | 5 µM
CCC(Cc1cccc(NS(=O)(=O)c2ccc(C(F)(F)F)cn2)c1)c1cc(O)c(C(c2ccccc2)C2CC2)c(=O)o1 | IIIB | - | cytopathic effect / MTT | - | 23.6 µM
COc1cccc(C(C)c2c(C)c(=O)[nH]c(=O)n2COCc2ccccc2)c1 | IIIB | - | MTT | - | >198 µM
CSc1nc(=O)n([C@H]2C[C@H](N=[N+]=[N-])[C@@H](CO)O2)cc1C | - | - | - | - | 31 µM
O=C(NNCCO)c1[nH]c2ccc(Cl)cc2c1S(=O)(=O)c1ccccc1 | IIIB | - | cytopathic effect / MTT | - | 0.01 µM
Cc1ccc(C(C)c2c(C)c(=O)[nH]c(=O)n2COCc2ccccc2)cc1 | IIIB | - | MTT | - | >343 µM
Cc1ccc(C(=O)NC2(C(=O)N[C@@]34CC[C@]5(C)[C@H](CC[C@@H]6[C@@]7(C)CC[C@H](OC(=O)C8C[C@@H](C(=O)O)C8(C)C)C(C)(C)[C@@H]7CC[C@]65C)C3=C(C(C)C)C(=O)C4)CCCC2)cn1 | NL4-3 | - | p24 | - | <0.005 µM
Nc1nc(NC2CC2)c2ncn([C@H]3C=C[C@@H](CO)C3)c2n1 | XM-AZT-resistant | RT-M41L D67N K70R T215Y K219Q | p24 | - | <4.2 µM
COc1ccc(S(=O)(=O)N(CC(C)C)C[C@@H](O)[C@H](Cc2ccccc2)NC(=O)[C@H](C(C)C)N2CC(=O)N(Cc3ccccc3)C2=O)cc1 | A17 (LPV-resistant) | PR-L10F V32I M46I I47V Q68E I84V | cytopathic effect / MTT | - | 0.059 µM
Cc1ccnc2c1NC(=O)c1cccnc1N2C1CC1 | IIIB | - | MTT | - | 0.15 µM
Cc1ccccc1S(=O)(=O)c1c(C(=O)NCCO)[nH]c2ccc(Cl)cc12 | - | RT-K103N Y181C | cytopathic effect / MTT | - | 12 µM
CCOCn1c(Sc2ccccc2)cc(=O)[nH]c1=O | NL4-3 | - | MTT | - | 0.025 µg/mL
Clc1cc(CN2CCCNCCNCCCNCC2)cc(Cl)n1 | NL4-3 X4 | - | p24 | - | 1.8 µM
N#CC1=CC2Nc3ccccc3C2N(c2ccc(C#N)cc2)C1=O | LAI | - | cytopathic effect / MTT | - | >32 µM
CC(C)C1=C2[C@H]3CC[C@@H]4[C@@]5(C)CC[C@H](OC(=O)C6C[C@@H](C(=O)O)C6(C)C)C(C)(C)[C@@H]5CC[C@@]4(C)[C@]3(C)CC[C@@]2(NC(=O)C(C)(C)NC(=O)c2ccc(C(F)(F)F)cc2)CC1=O | NL4-3 | - | p24 | - | <0.005 µM
C[C@H]1CN(C2CC2)C(=O)C2=C(O)C3C(=O)N4Cc5ccc(F)cc5OCCCCCN(C)C(=O)C(=N4)C3N21 | LAII(IIIB) | - | - | - | 3.05 µM
CC(C)C1=C2[C@H]3CC[C@@H]4[C@@]5(C)CC[C@H](OC(=O)C6C[C@@H](C(=O)O)C6(C)C)C(C)(C)[C@@H]5CC[C@@]4(C)[C@]3(C)CC[C@@]2(NC(=O)C2(NC(=O)c3ncccn3)CCC2)CC1=O | NL4-3 | V7A | p24 | - | >0.05 µM
N#Cc1cc2[nH]c3ccccc3c2n(-c2ccc([N+](=O)[O-])cc2)c1=O | A | RT-Y181C | cytopathic effect / MTT | - | 2.51 µM
CC(C)C1=C2[C@H]3CC[C@@H]4[C@@]5(C)CC[C@H](OC(=O)C6C[C@@H](C(=O)O)C6(C)C)C(C)(C)[C@@H]5CC[C@@]4(C)[C@]3(C)CC[C@@]2(NC(=O)C2(NC(=O)c3ccc(Cl)cc3)CCC2)CC1=O | NL4-3 | V7A | p24 | - | <0.01 µM
CCCCc1cccc(-c2nc(-c3ccc(N4C(=O)C=CC5C4c4ccccc4N5C)cc3)no2)c1 | LAI | - | cytopathic effect / MTT | - | >32 µM
C=C(c1ccccc1)c1c(C)c(=O)[nH]c(=O)n1COCc1ccccc1 | IIIB | F227L + V106A | MTT | - | 43.65 µM
CCC(C)[C@@H](C(=O)N[C@@H](Cc1ccccc1)[C@H](O)CN(CC(C)C)S(=O)(=O)c1ccc(/C=N/O)cc1)N1CCN(Cc2cccc(C(C)C)n2)C1=O | A17 (LPV-resistant) | PR-L10F V32I M46I I47V Q68E I84V | cytopathic effect / MTT | - | 0.005 µM
Cc1ccccc1C(C)c1c(C)c(=O)[nH]c(=O)n1COCc1ccccc1 | IIIB | - | MTT | - | 23.21 µM
Cc1cc(C)cc(Sc2c(C(=O)NCCO)[nH]c3ccc(Cl)cc23)c1 | - | RT-Y181C | cytopathic effect / MTT | - | 0.009 µM
Cn1c2ccccc2c2c1cc(C#N)c(=O)n2-c1ccc([N+](=O)[O-])cc1 | B | RT-K103N | cytopathic effect / MTT | - | 0.03 µM
Cc1cc(C#N)cc(C)c1Oc1nc(Nc2ccc(C#N)cc2)nc(N)c1Br | IIIB | - | MTT | - | 0.0032 µM
CC(C)=CCN1Cc2cc(Cl)cc3[nH]c(=O)n(c23)C[C@@H]1C | IIIB | RT-L100I | cytopathic effect / XTT | - | >22 µM
Cc1cccc(S(=O)(=O)c2c(C(=O)NCCO)[nH]c3ccc(Cl)cc23)c1 | IIIB | - | cytopathic effect / MTT | - | 0.003 µM
Nc1nc(=O)n([C@H]2C=C[C@@H](CO)O2)cc1F | XM-Q151M | RT-A62V V75I F77C F116Y Q151M | p24 | - | <32 µM
CC(C)[C@H](NC(=O)OCc1ccccn1)C(=O)N[C@@H](Cc1ccccc1)[C@@H](O)C[C@H](Cc1ccccc1)NC(=O)OCc1cccnc1 | NL4-3 | PR-L10R M46I V82T | p24 | - | <1.5 µM
Nc1nc(N)c2ncn([C@H]3C=C[C@@H](CO)O3)c2n1 | IIIB Laboratory strain | - | cytopathic effect / trypan blue | - | >1 µM
CC(C)C1=C2[C@H]3CC[C@@H]4[C@@]5(C)CC[C@H](OC(=O)C6C[C@@H](C(=O)O)C6(C)C)C(C)(C)[C@@H]5CC[C@@]4(C)[C@]3(C)CC[C@@]2(NC(=O)C(C)(C)NC(=O)c2ncccn2)CC1=O | NL4-3 | V7A | p24 | - | >0.05 µM
Cc1cccc(C(C)c2c(C(C)C)c(=O)[nH]c(=O)n2COCc2ccccc2)c1 | IIIB | K103N | MTT | - | 4.33 µM
Cc1cc(C)cc(Sc2c(C(=O)NNCCO)[nH]c3ccc(Cl)cc23)c1 | - | RT-K103N Y181C | cytopathic effect / MTT | - | 6.7 µM
CCC(C)[C@@H](C(=O)N[C@@H](Cc1ccccc1)[C@H](O)CN(CC1CCCC1)S(=O)(=O)c1ccc(/C=N/O)cc1)N1CCN(Cc2cccc(COC)n2)C1=O | - | - | cytopathic effect / MTT | - | 0.002 µM
O=C(NCCO)c1[nH]c2ccc(Cl)cc2c1S(=O)(=O)c1ccccc1 | - | RT-K103N Y181C | cytopathic effect / MTT | - | 4.2 µM
CCC(O)(c1cccc(OC)c1)c1c(C)c(=O)[nH]c(=O)n1COCc1ccccc1 | IIIB | - | MTT | - | >109 µM

Repeating the final 4 entries:

{"compound": "Cc1cc(C)cc(Sc2c(C(=O)NNCCO)[nH]c3ccc(Cl)cc23)c1", "changes": "RT-K103N Y181C", "read by": "cytopathic effect / MTT", "value": "6.7 µM"}
{"compound": "CCC(C)[C@@H](C(=O)N[C@@H](Cc1ccccc1)[C@H](O)CN(CC1CCCC1)S(=O)(=O)c1ccc(/C=N/O)cc1)N1CCN(Cc2cccc(COC)n2)C1=O", "read by": "cytopathic effect / MTT", "value": "0.002 µM"}
{"compound": "O=C(NCCO)c1[nH]c2ccc(Cl)cc2c1S(=O)(=O)c1ccccc1", "changes": "RT-K103N Y181C", "read by": "cytopathic effect / MTT", "value": "4.2 µM"}
{"compound": "CCC(O)(c1cccc(OC)c1)c1c(C)c(=O)[nH]c(=O)n1COCc1ccccc1", "strain or isolate": "IIIB", "read by": "MTT", "value": ">109 µM"}

Lines come from different laboratories, so protocols vary. An empty or dashed field is not shown.